{
  "source": "ChEMBL document CHEMBL1124519",
  "about": "(J Med Chem, 1989)",
  "test": "Half-life period obtained from linear regression of metabolite concentration in aqueous buffer of pH 7.4 at 37 degrees Celsius in 100 mM HEPES buffer.",
  "data": [
    {"molecule": "NP(=O)(O)N(CCCl)CCCl", "values": [
      {"measurement": "T1/2", "value": 18, "unit": "min"}
    ]}
  ]
}
